# Source: PubChem BioAssay AID504761 (Drosophila RNAi Screening Center, 2011)
# Screen: 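Fly genes whose silencing reduces dengue virus type 2 infection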 (primary screen)
# Cells: D.Mel-2 cells from Drosophila
# Reagent: long dsRNA against Drosophila genes
# Challenge: infection with dengue virus type 2; dose and infection time not stated
# Measurement: 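Per well on two replicate plates, imaging gave the percent of cells positive for viral envelope protein, ranked by infection, and a nuclear count of cells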
# Scale: infection score: higher = more virus-infected cells
# Hit rule: 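Low infection ranks in the two replicates (chance level up to 0.065) followed by a retest with a 1.5-fold or larger significant decrease, p below 0.05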
# Meaning of the calls: active = confirmed: knock-down lowers infection; inactive = not picked or not confirmed
# In all, the deposit lists about 22,000 reagents; this is a random part of those with a known target gene and a result. Of all reagents, 116 (0.52%) were called active. 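Calls depend on retest data that are not deposited; infection was ranked per plate without normalising between plates; the unit of the infection score is not given.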 A number with no mark means an inactive call. A plus sign joins genes that one reagent is predicted to hit. Not all columns of the deposit are shown. Not stated in the record: the amount of reagent, the time to read-out.
Gene,DRSC id,"infection score, replicate 1","infection score, replicate 2"
CG14443,DRSC17936,2.9,4.85
GrlHz,DRSC04424,13.6,35
brv2,DRSC10226,6.36,21.3
brv2,DRSC29796,17.7,8.27
CG14414,DRSC19599,34,
CG9294,DRSC04537,5.86,3.65
CG12362,DRSC09884,0.53,1.43
CG42700,DRSC06293,21.7,8.81
CG42700,DRSC23109,2.77,6.58
CG42700,DRSC27344,14.1,10.9
CG13062,DRSC09945,4.59,6.14
CG13062,DRSC28840,14.2,
CG17475,DRSC15238,1.43,8.48
CG17475,DRSC27674,22.6,34.6
Svil,DRSC08296,7.98,9.12
Svil,DRSC08332,2.32,1.59
Svil,DRSC08494,1.46,5.53
Svil,DRSC24435,10.3,8.93
Svil,DRSC25804,2.88,8.4
amx,DRSC23466,2.12,2.69
CG12017,DRSC08225,2.39,2.96
CG12017,DRSC28937,12,1.96
Vajk1,DRSC01882,4.87,9.24
Vajk1,DRSC26105,5.71,1.88
CG31999,DRSC17131,3.89,23.4
CG31999,DRSC17133,0.73,
CG2127,DRSC06821,14.5,9.9
CG7251,DRSC03039,2.74,1.66
CG7251,DRSC28293,11.5,14.1
aop,DRSC22999,0.95,14
aop,DRSC25805,4.82,1.96
babos,DRSC03923,1.8,1.88
babos,DRSC04397,13.7,30.8
ssh,DRSC16730,7.43,6.22
ssh,DRSC28782,16.9,9.78
CG34126,DRSC02726,6.58,1.68
CG34126,DRSC22079,1.77,1.65
CG31528,DRSC12003,1.35,1.6
Charon,DRSC00679,1.32,5.63
CG32695,DRSC17975,10.7,8.73
CG33791 + CG18170,DRSC08523,3.56,6.61
CG33791 + CG18170,DRSC08601,3.48,3.5
CG33791 + CG18170,DRSC24614,3.3,2.58
Kaz,DRSC14637,,13.6
Hyccin,DRSC06983,8.34,18.6
CG5493 + CG5327,DRSC06938,2.06,1.45
ph-p,DRSC18820,9.84,1.41
Spn27A,DRSC03608,7.01,1.34
jim,DRSC11889,3.19,8.62
jim,DRSC23829,3.58,1.65
dysc,DRSC10273,5.51,3.38
dysc,DRSC11040,2.09,2.75
dysc,DRSC22334,4.43,20
dysc,DRSC22824,1.03,1.79
dysc,DRSC26188,16,2.76
Tsf2,DRSC09751,8.1,1.92
CG46385,DRSC06557,12,19.7
CG46385,DRSC25794,0.95,6.11
Cby,DRSC14591,1.47,3.19
CG31626 + CG8677,DRSC21844,2.4,1.12
CG31626 + CG8677,DRSC25078,5.54,4.86
nebu,DRSC09807,8.75,18.3
nebu,DRSC09808,1.33,1.51
Arpc3A,DRSC15596,7.31,9.24
Arpc3A,DRSC27915,8.72,3.13
CG10077,DRSC09691,18.5,5.85
CG10077,DRSC24756,2.86,5.23
CG14125,DRSC10129,3.84,4.65
CR40450 + CG32767,DRSC18387,2.4,3.92
LysX,DRSC08678,5.83,3.83
Sps1,DRSC07549,20.3,10.8
wgn,DRSC19998,4.75,3.27
CG13159,DRSC06283,1.63,16
CG13159,DRSC28093,17.9,12.5
